Reference: the NIST ThermoML archive (doi:10.1021/acs.jced.5b00285)

Settings: 101.33 kPa, Liquid; for electrical conductivity: Alternating current cell with electrodes; for mass density: Vibrating tube method

CCCCn1cc[n+](C)c1.O=S(=O)(F)[N-]S(=O)(=O)F [1-butyl-3-methylimidazolium bis(fluorosulfonyl)imide]
Settings | electrical conductivity [S/m] | mass density [kg/m3] | viscosity [mPa·s]
273.15 K | 0.291 | 1379.2 | 98.81
278.15 K | 0.37 | 1374.73 | 76.48
283.15 K | 0.462 | 1370.3 | 60.41
288.15 K | 0.561 | 1365.9 | 48.6
293.15 K | 0.681 | 1361.53 | 39.71
298.15 K | 0.816 | 1357.17 | 32.93
303.15 K | 0.953 | 1352.85 | 27.64
308.15 K | 1.12 | – | –
313.15 K | 1.27 | 1344.27 | 20.22
318.15 K | 1.47 | – | –
323.15 K | 1.64 | 1335.79 | 15.35
328.15 K | 1.86 | – | –
333.15 K | 2.04 | 1327.38 | 12.01
338.15 K | 2.29 | – | –
343.15 K | 2.48 | 1319.05 | 9.651
348.15 K | 2.77 | – | –
353.15 K | 2.94 | 1310.8 | 7.918
358.15 K | 3.28 | – | –
363.15 K | – | 1302.61 | 6.626
368.15 K | 3.83 | – | –
378.15 K | 4.4 | – | –
388.15 K | 4.99 | – | –
398.15 K | 5.6 | – | –
408.15 K | 6.23 | – | –
418.15 K | 6.87 | – | –
428.15 K | 7.53 | – | –
438.15 K | 8.2 | – | –
448.15 K | 8.89 | – | –
458.15 K | 9.62 | – | –
468.15 K | 10.3 | – | –
